B1: mAb10913 (antibody, V domains shown)
VH: EVQLVESGGGLVQPGGSLRLSCAASGFTFRNYEMNWVRQAPGKGLEWVSYITSSGSTMYYADSVKGRFTISRDNAKNSLYLQMNSLRAEDTAVYYCARDGFYYYYAMDVWGQGTTVTVSS
VL: QSVLTQPPSVSAAPGQKVTISCSGSSSNIGNNYVSWYQQLPGTAPKLLIYDNNKRPSGIPDRFSGSKSGTSATLGITGLQTGDEADYYCGTWDSSLSVGRVFGTGTKVTVLG
B2: mAb10920 (antibody, V domains shown)
VH: QVQLVESGGGVVQPGRSLRLSCAASGFTFSYYGMHWVRQAPGKGLEWVAVIWYDGSNKFYADSVKGRFTISRDNSKNTLYLQMNSLRAEDTAVYYCAAARPGYYYGMDVWGQGTTVTVSS
VL: DIQMTQSPSSLSASVGDRVTITCRASQGISNYLAWFQQKPGKAPNSLIYAASSLQRGVPSKFSGSGSGTDFTLTISSLQPEDFATYYCQQYNSYPRTFGQGTKVEIKR
B3: mAb10930 (antibody, V domains shown)
VH: EVQLVESGGGLVQPGRSLRLSCAASGFTFDDYAMYWVRQAPGKGLEWVSGISWNSGSIGYADSVKGRFTISRDNAKNSLYLQMNSLRAADTALYYCAKDKDWNSRGYYYYGMDVWGQGTTVTVSS
VL: not shown
B4: mAb10937 (antibody, V domains shown)
VH: QITLKESGPTLVKPTQTLTLTCTFSGFSLSTNVVGVGWIRQPPGKALEWLALIYWNDDKRYSPSLKSRLTITKDTSKNQVVLTMTNMDPVDTATYYCAHGPTGDYFDYWGQGTLVTVSS
VL: not shown
B5: mAb10984 (antibody, V domains shown)
VH: EVQLVESGGGLVQPGGSLRLSCAASGLTVNRNYMSWVRQAPGKGLEWVSLIYSGGSTYYADSVKGRFTISRDNSKNTLYLQMNSLRLEDTAVYYCARGELGIPYGMDVWGQGTTVTVSS
VL: QSVLTQPPSVSAAPGQKVTISCSGSSSNIGNNYVSWYQQLPGTAPKLLIYDNNKRPSGIPDRFSGSKSGTSATLGITGLQTGDEADYYCGTWDSSLSAGVFGGGTKLTVLG
B6: mAb10985 (antibody, V domains shown)
VH: EVQLVESGGGLVQPGRSLRLSCAASGFTFDDYAMHWVRQAPGKGLEWVSGISWNRGSIGYADSVKGRFTISRDNAKNSLYLQMSSLRAEDTALYYCAKDGERWDSVVVPSARNGMDVWGQGTTVTVSS
VL: QSVLTQPPSVSGAPGQRVTISCTGSSSNIGAGYDVHWYQQLPGTAPKLLIYGNSNRPSGVPDRFSGSKSGTSASLAITGLQAEDEADYYCQSYDSSLSGSYVFGTGTKVTVLG

Target: MERS-CoV Spike Protein S1 (aa 1-725, His Tag) (Sino 40069-V08H) (MERS-CoV, UniProt K9N5Q8 18-725)
Experiment: Luminex, supernatant

**Q.** For B1, which MFI is on record?
**A.** 14 MFI

**Q.** How did the MFI turn out when B2 was run?
**A.** 13 MFI

**Q.** With B3 as the binder, how does the MFI read?
**A.** 14 MFI

**Q.** For B4, which MFI is on record?
**A.** 14 MFI

**Q.** For B5, which MFI is on record?
**A.** 13 MFI

**Q.** B6 was tested. Which MFI did it give?
**A.** 14 MFI

— patent US20240043504A1 (published 2024)
